Laboratory results published in PMC11109247.

Target: NiVBD G ectodomain (Nipah virus Bangladesh attachment glycoprotein, residues 71-602), Strep-tagged (Nipah virus (Bangladesh strain))
Assay: SDS-PAGE without reduction and boiling

Q: With “NiVBD G ectodomain (Nipah virus Bangladesh attachment glycoprotein, residues 71-602), Strep-tagged (domain or fragment)” as the substance, how does the stoichiometry N read?
A: The stoichiometry N was 4 and 2.

“And” between values parts separate entries of the source, which are not always exact repeats. Identical values can stand only once.
